Laboratory results reported in patent US10149852B2, “Use of sodium channel blockers for the treatment of neuropathic pain developing as a consequence of chemotherapy” (priority 2006, dated 2018).

How the values were obtained:
Conditions in all cases: mouse, in vivo
[1] = system: paclitaxel-induced mechanical allodynia
[2] = system: paclitaxel-induced cold allodynia
[3] = system: paclitaxel-induced thermal hyperalgesia

For “Octahydro-12-(Hydroxymethyl)-2-imino-5,9,7,10a-dimethano-10aH-[1,3]dioxocino[6,5-d]pyrimidine-4,7,10,11,12-pentol [TTX]”, the “effect on development of paclitaxel-induced mechanical allodynia (threshold force, Von Frey test)” value [1] was “inhibited the development”, the “effect on expression of paclitaxel-induced mechanical allodynia (threshold force)” value [1] was “inhibited mechanical allodynia” and the “effect on threshold force for hind paw withdrawal in control animals (Von Frey test)” value [1] was “No statistically significant differences”. The “effect on development of paclitaxel-induced cold allodynia (duration and frequency of paw licking/biting)” value [2] was “non-significantly different from that obtained on pre-treatment day”, the “effect on duration and frequency of paw licking/biting in control animals (acetone test)” value [2] was “No statistically significant differences” and the “effect on development of paclitaxel-induced thermal hyperalgesia (latency to hind paw withdrawal, plantar test)” value [3] was “No statistically significant differences”. For the same substance, the “effect on expression of paclitaxel-induced thermal hyperalgesia (paw withdrawal latency)” value [3] was “inhibited paclitaxel-induced thermal hyperalgesia in a dose-dependent manner” and the “effect on paw withdrawal latency in control animals (plantar test)” value [3] was “No statistically significant differences”.
